Pooled drug test results. Numbers come from NIAID ChemDB, via PubChem.

Shared fields: whole-cell or culture tests; organism: Poliovirus; cell line: VERO; measure: EC50

ECn: concentration that inhibits the pathogen or its effect by n%.

compound,strain,result
Cc1cc(CCCCCCCOc2ccc(C3=NCCO3)cc2)on1,TYPE 1,2.36 µM
CCN(CC)c1noc(-c2ccc(O)cc2O)c1Cc1c(N(CC)CC)noc1-c1ccc(OC)cc1O,SABIN (TYPE 1),>3.5 µM
COc1cc(OC)c(/C=N/N=C(/N)NO)c(OC)c1.Cc1ccc(S(=O)(=O)O)cc1,Brunhilde (type 1),>50 µM
CC(C)CCCC(COS(=O)(=O)O)C1CCC2C3CC=C4C[C@H](O)[C@@H](OS(=O)(=O)O)CC4(C)C3CCC12C,TYPE 3,58.5 µg/mL
COc1ccc(-c2cc(N(C)C)no2)c(O)c1,SABIN (TYPE 1),>427 µM
Cn1cc(CCCCOc2ccc(C3=NCCO3)cc2)cc1C=O,Type 1/Sabin strain,>280 µM
Cc1ccc(C(=O)CCCCCCOc2ccc(C3=NC(C)CO3)cc2)s1,TYPE 2,>25.97 µM
COc1ccc(-c2cc(N3CCCCC3)no2)c(O)c1,SABIN (TYPE 1),>364 µM
C[C@@]1(O)[C@H](O)[C@@H](COP(=O)(O)OP(=O)(O)OP(=O)(O)O)O[C@H]1n1ccc2c(N)ncnc21,TYPE 3,5.9 µM
CCOc1ccc(-c2cc(N3CCCCC3)no2)c(O)c1,SABIN (TYPE 1),>347 µM
Cc1ccc(C(=O)CCCCOc2ccc(C3=NCC(C)O3)cc2Cl)s1,TYPE 3,1.48 µM
COc1ccc(/C=N/N=C(/N)NO)c(OC)c1OC.Cc1ccc(S(=O)(=O)O)cc1,Brunhilde (type 1),>50 µM
COc1cc2oc(-c3ccccc3)cc(=O)c2c(OC)c1OC,P1 TYPE (SABIN),32 µg/mL
Cc1ccc(C(=O)CCCCCCOc2ccc(C3=N[C@H](C)CO3)cc2)s1,TYPE 2,>25.97 µM
CCCCCCCCCCCCCCCCCCCCCCO,-,>5 µg/mL

A second listing of 2 rows from above:

CC(C)CCCC(COS(=O)(=O)O)C1CCC2C3CC=C4C[C@H](O)[C@@H](OS(=O)(=O)O)CC4(C)C3CCC12C ; strain: TYPE 3 ; result: 58.5 µg/mL
C[C@@]1(O)[C@H](O)[C@@H](COP(=O)(O)OP(=O)(O)OP(=O)(O)O)O[C@H]1n1ccc2c(N)ncnc21 ; strain: TYPE 3 ; result: 5.9 µM

Rows are shuffled and stem from different studies. Blank or dashed fields: not listed here.